A value given as a limit tells only on which side of the number the result lay.

The data set has as its system HIV-1 (clinical paediatric strain RoJo or WeJo) in human PBMCs. Briefly: Anti-HIV efficacy evaluation in fresh human PBMCs. The following applies: therapeutic index: TC50/IC50. The format is cell-based. As for the experimental part: Representative compounds of the present invention were tested for antiviral activity against HIV-1 in human peripheral blood mononuclear cells (PBMCs) using the clinical paediatric HIV strain RoJo or WeJo. PBMCs were cultured under conditions which promote cell survival and HIV replication. Antiviral activity was tested for from 6-9 log10 serial dilutions of a 100 μM compound stock solution in DMSO.
Fresh PBMCs, seronegative for HIV and HBV, were isolated from screened donors (Interstate Blood Bank, Inc. Memphis, Term.). Cells were pelleted/washed 2-3 times by low speed centrifugation and re-suspension in PBS to remove contaminating platelets. […] Banded PBMCs were gently aspirated from the resulting interface and subsequently washed with PBS by low speed centrifugation. After the final wash, cells were enumerated by trypan blue exclusion and re-suspended in RPMI 1640 supplemented with fetal bovine serum (FBS), and L-glutamine, Phytohemagglutinin (PHA-P, Sigma). The cells were allowed to incubate at 37° C. After incubation, PBMCs were centrifuged and resuspended in RPMI 1640 with FBS, L-glutamine, penicillin, streptomycin, gentamycin, and recombinant human IL-2 (R&D Systems, Inc). IL-2 is included in the culture medium to maintain the cell division initiated by the PHA mitogenic stimulation. PBMCs were maintained in this with bi-weekly medium changes until used in the assay protocol. Cells were kept in culture for a maximum of two weeks before being deemed too old for use in assays and discarded. Monocytes were depleted from the culture as the result of adherence to the tissue culture flask.
For the standard PBMC assay, PHA-P stimulated cells from at least two normal donors were pooled, diluted and plated in the interior wells of a 96-well round bottom microplate. Pooling of mononuclear cells from more than one donor was used to minimise the variability observed between individual donors, which results from quantitative and qualitative differences in HIV infection and overall response to the PHA and IL-2 of primary lymphocyte populations. Each plate contained virus/cell control wells (cells plus virus), experimental wells (drug plus cells plus virus) and compound control wells (drug plus media […], necessary for MTS monitoring of cytotoxicity). Since HIV-1 is not cytopathic to PBMCs, this allows the use of the same assay plate for both antiviral activity and cytotoxicity measurements. Test drug dilutions were prepared in microtiter tubes and each concentration was placed in appropriate wells using the standard format. A predetermined dilution of virus stock was placed in each test well (final MOI≅0.1). The PBMC cultures were maintained for seven days following infection at 37° C., 5% CO2. After this period, cell-free supernatant samples were collected for analysis of reverse transcriptase activity and/or HIV p24 content. Following removal of supernatant samples, compound cytotoxicity was measured by addition of MTS to the plates for determination of cell viability. Wells were also examined microscopically and any abnormalities were noted.
Reverse transcriptase activity assay: A microtiter plate-based reverse transcriptase (RT) reaction was utilised (Buckheit et al., AIDS Research and Human Retroviruses 7:295-302, 1991). Tritiated thymidine triphosphate (^3H-TTP, 80 Ci/mmol, NEN) was received in 1:1 dH2O:Ethanol at 1 mCi/mL. Poly rA:oligo dT template:primer (Pharmacia) was prepared as a stock solution, followed by aliquoting and storage at −20° C. […]
The molecule `Cc1nc(N)sc1-c1ccnc(Nc2ccc(N3CCOCC3)cc2)n1` [Compound 1, [4-(2-Amino-4-methyl-thiazol-5-yl)-pyrimidin-2-yl]-(4-morpholin-4-yl-phenyl)-amine] showed a TI of 4.6.

In turn, `CNc1nc(C)c(-c2ccnc(Nc3ccc(N4CCOCC4)cc3)n2)s1` [Compound 3, [4-(2-N-Methylamino-4-methyl-thiazol-5-yl)-pyrimidin-2-yl]-(4-morpholinophenyl)-amine] came in with a TI above 337.

As to `CCNc1nc(C)c(-c2ccnc(Nc3ccc(N4CCOCC4)cc3)n2)s1` [Compound 4, [4-(2-Ethylamino-4-methyl-thiazol-5-yl)-pyrimidin-2-yl]-(4-morpholin-4-yl-phenyl)-amine], the TI was determined as 57.

Consider `Cc1nc(NC(=O)[C@H](N)[C@@H](C)O)sc1-c1ccnc(Nc2cccc([N+](=O)[O-])c2)n1` [Compound 15, (2R,3R)-2-Amino-3-hydroxy-N-{4-methyl-5-[2-(3-nitro-phenylamino)-pyrimidin-4-yl]-thiazol-2-yl}-butyramide], for which the TI was 20.

Consider `Cc1nc(C)c(-c2ccnc(Nc3ccc(NC(=O)CN4CCCC4)cc3)n2)s1` [Compound 53, N-{4-[4-(2,4-Dimethyl-thiazol-5-yl)-pyrimidin-2-ylamino]-phenyl}-2-pyrrolidin-1-yl-acetamide], for which the TI was 1.9.

For the origin of these results see patent US7432260B2, “Pyrimidine compounds” (Cyclacel Limted, priority 2002, dated 2008).
